Assay results reported in paper PMC3260234.

Key:
[1] = biological target: T1, OxyS (Mycobacterium tuberculosis) (UniProt L7N677); assay: EMSA; conditions: 20 mM Tris-HCl pH 7.5, 100 mM NaCl, 2 mM EDTA, room temperature 20 min, recombinant protein, protein details: 6xHis (pET28a), probe letters rebuilt from the primers and the genome
T1 sequence (looked up, limits assumed): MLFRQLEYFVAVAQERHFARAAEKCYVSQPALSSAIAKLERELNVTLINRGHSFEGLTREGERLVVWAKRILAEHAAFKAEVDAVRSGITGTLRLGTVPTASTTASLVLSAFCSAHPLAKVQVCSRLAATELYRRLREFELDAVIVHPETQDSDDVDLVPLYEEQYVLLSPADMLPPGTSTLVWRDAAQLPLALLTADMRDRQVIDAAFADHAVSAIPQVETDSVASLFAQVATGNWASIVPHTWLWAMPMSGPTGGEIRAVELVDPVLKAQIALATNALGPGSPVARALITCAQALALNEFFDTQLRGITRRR

[2] = biological target: T1, OxyS (Mycobacterium tuberculosis); assay: competition with a labelled probe; conditions: 20 mM Tris-HCl pH 7.5, 100 mM NaCl, 2 mM EDTA, room temperature 20 min, recombinant protein, protein details: 6xHis (pET28a), probe letters rebuilt from the primers and the genome

Measured: binding result

AGCATTCCTTCCAGGAGTTGGTGTTATCGGGCTGTGATCACGGATGTGATCGCGAAGTGTCGGATATCGAACAATCAGGACATAGACCCCAGTAGATGACCTCCGCCTCGTCCAACAGGAAGCCGTTATGGTCCGAGGCCGTCAGACAGGGTGCCTCGCCAACAGCACAGTCGACATCGGCGATAACCCCGCAAGACCGGCAGACGATGTGATGGTGGTTGTCGCCGACCCTGGACTCGTAGCGCGCGACGGAGCCCGAGGGTTGGATCTTTCGCACCAAGCCCGCGGCGGTCAGGGCATGCAGCACGTCGTACACGGCTTGCCGGGATACGTCGGGCAGCGCAAAACGC (double strand) [katGp]
binds: [1]; 100-600 nM OxyS | [1]; DTT (no effect), 400 nM OxyS | [2]

Construct, isoform or probe ends are uncertain for at least one entry. For part of these data: At least one verdict rests on a figure or table, not on a statement of the authors. Tags and fusion partners may be left off the protein sequences shown.
